Pooled drug test results. Numbers come from NIAID ChemDB, via PubChem.

All rows: whole-cell or culture tests

ECn is the concentration giving n% inhibition of infection, replication or growth. MIC50, MIC90 and the like: level of inhibition, or share of isolates inhibited. Conditions beyond the fields shown may differ between rows. Zone: diameter of growth inhibition. Blank or dashed fields: not listed here.

| structure | measure | tested at | method | species | strain | value |
|---|---|---|---|---|---|---|
| CCC(C)n1ncn(-c2ccc(N3CCN(c4ccc(OC[C@H]5CO[C@](Cn6cncn6)(c6ccc(Cl)cc6Cl)O5)cc4)CC3)cc2)c1=O | MIC | - | - | Candida albicans | A14058 | 0.25 µg/mL |
| O=c1c(O)c(-c2ccc(O)c(O)c2)oc2cc(O)cc(O)c12 | MIC50 | - | broth dilution | Candida tropicalis | Clinical isolate 3 | >128 µg/mL |
| c1ccc([Se][Se]c2ccccc2)cc1 | MIC | - | broth dilution | Candida guilliermondii | - | >64 µg/mL |
| OC(Cn1cncn1)(Cn1cncn1)c1ccc(F)cc1F | MIC | - | broth dilution | Candida albicans | YL 338 | 512 µg/mL |
| C=CCOc1ccc(C2CC(=O)c3c(O)cc(O)cc3O2)cc1 | zone | 100 µg/mL | agar diffusion / agar | Candida krusei | - | 0 mm |
| Cc1ccc(C(C)C)c(O)c1 | EC50 | - | broth dilution / turbidity | Candida lusitaniae | PYCC 2705 | 0.18 µM |
| C[C@@H]1[C@H](O)[C@@H](C)/C=C/C=C/CC/C=C/C=C/C=C/C=C/C(O[C@H]2O[C@H](C)[C@@H](O)[C@H](N)[C@@H]2O)CC2O[C@](O)(CC(O)C(O)CCC(O)CC(O)CC(O)CC(=O)O[C@H]1C)CC(O)C2C(=O)O | MFC100 | - | broth dilution | Candida tropicalis | ATCC 40042 | 64 µg/mL |
| CC(C)=CCOc1ccc(C2CC(=O)c3c(O)cc(O)cc3O2)cc1 | zone | 100 µg/mL | agar diffusion / agar | Candida dubliniensis | - | 0 mm |
| COc1cc(C[C@H](C)[C@H](C)Cc2ccc(O)c(O)c2)ccc1O | MIC80 | - | broth dilution | Candida parapsilosis | CCC 124-2000 | 62.5 µg/mL |
| O=Cc1cccc(O)c1O | EC50 | - | broth dilution / turbidity | Candida parapsilosis | PYCC 2545 | 0.09 µM |
| CN(C/C=C/C#CC(C)(C)C)Cc1cccc2ccccc12 | MIC90 | - | broth dilution | Candida guilliermondii | 24 clinical isolates | >16 µg/mL |
| O=C(O)c1ccccc1O | EC50 | - | broth dilution / turbidity | Candida lusitaniae | PYCC 2705 | 0.1 µM |
| CCC(C)n1ncn(-c2ccc(N3CCN(c4ccc(OC[C@H]5CO[C@](Cn6cncn6)(c6ccc(Cl)cc6Cl)O5)cc4)CC3)cc2)c1=O | MIC90 | - | broth dilution | Candida parapsilosis | 52 clinical isolates | 0.25 µg/mL |
| COc1cc(C2CC(=O)c3c(O)cc(O)cc3O2)ccc1OCC=C(C)C | zone | 100 µg/mL | agar diffusion / agar | Candida dubliniensis | - | 0 mm |

Again, the opening 2 rows:

{"structure": "CCC(C)n1ncn(-c2ccc(N3CCN(c4ccc(OC[C@H]5CO[C@](Cn6cncn6)(c6ccc(Cl)cc6Cl)O5)cc4)CC3)cc2)c1=O", "measure": "MIC", "species": "Candida albicans", "strain": "A14058", "value": "0.25 µg/mL"}
{"structure": "O=c1c(O)c(-c2ccc(O)c(O)c2)oc2cc(O)cc(O)c12", "measure": "MIC50", "method": "broth dilution", "species": "Candida tropicalis", "strain": "Clinical isolate 3", "value": ">128 µg/mL"}